Source: publication PMC12363188 (2025)

Legend:
Assay in all cases: SPR
[1] = target: T1, BANAL-52 S-RBD (residues 330 to 530) (bat coronavirus BANAL-52)
[2] = target: T2, BANAL-103 S-RBD (residues 326 to 526) (bat coronavirus BANAL-103)
[3] = target: T1, BANAL-52 S-RBD (residues 330 to 530); remark: listed apart in the source
[4] = target: T2, BANAL-103 S-RBD (residues 326 to 526); remark: listed apart in the source

B1: Rhinolophus pusillus bat ACE2 ectodomain (residues 18 to 615) (domain or fragment)
chain: QSITEDKAKKFLNDFNSEAEDLSYQSSLASWDYNTNISDENVQKMDEAGAKWSAFYEEQSKIAKNYPLEEIQTDIVKRQLQILQQSGSPVLSEDKSKRLNSILNAMSTIYSTGKVCKPNNPQECLLLEPGLDNIMGTSKDYHERLWAWEGWRAEVGKQLRPLYEEYVVLKNEMARGYHYEDYGDYWRRDYETEESSGPGYSRDQLMKDVDRIFTEIKPLYEHLHAYVRAKLMDTYPLHISPTGCLPAHLLGDMWGRFWTNLYPLTVPFGQKPNIDVTDEMVKQGWDANRIFKEAEKFFVSVGLPNMTEGFWNNSMLTEPGDGRKVVCHPTAWDLGKGDFRIKMCTKVTMEDFLTAHHEMGHIQYDMAYASQPYLLRNGANEGFHEAVGEVMSLSVATPKHLKTMGLLSPDFREDDETEINFLLKQALNIVGTLPFTYMLEKWRWMVFKGEIPKEEWMKKWWEMKREIVGVVEPVPHDETYCDPASLFHVANDYSFIRYYTRTIFEFQFHEALCRIAQHNGPLHKCDISNSTDAGKKLHQMLSVGKSQAWTKTLEDIVGSRNMDVGPLLRYFKPLYTWLQEQSRKSYVGWNTDWSPYSD
[1]
  koff: 0.0022 s⁻¹
[2]
  koff: 0.0044 s⁻¹
[3]
  Kd: 46 nM
[4]
  Kd: 55 nM
